Reference: article PMC5234717 (Journal of Lipid Research, 2016)

System: CCCCCCCCCCCCC/C=C/[C@@H](O)[C@@H](N)COP(=O)(O)O
Experiment: purified protein
Details: pH 7.5

Substance: S1PL2025 (Burkholderia pseudomallei K96243)
- Km: 50.19 ± 8.3 µM
- Vmax: 0.0082 µmol/min/mg
- kcat/Km: 150 M⁻¹ s⁻¹
